Consider 1 compound from US5266600A, “BU-4641V, an antibacterial, antiviral and antitumor antibiotic” (priority 1992, dated 1993).

This experiment has as its system P. aeruginosa A9843A.

A word on the MIC: it is the lowest concentration that inhibits growth of the organism. Low values mean a more susceptible organism, high ones a less susceptible organism. The compound `CC1=CCC2(C)C(=O)C(O)=C(C(C)CO)C2CC=C(C)C(O)CCC(C)=CCC1` (stereo not shown) [BU-4641V] had an MIC greater than 100 µg/mL.
